{"source": "paper PMC3384007", "about": "“Crystal Structure of the VapBC Toxin–Antitoxin Complex from Shigella flexneri Reveals a Hetero-Octameric DNA-Binding Assembly” (Journal of Molecular Biology, 2011)", "tested_on": "VapBC complex (VapB:His6-VapC), hetero-octamer VapB4C4 (Shigella flexneri (plasmid pMYSH6000))", "assay": "EMSA", "settings": "two distinct complexes, 2.5 ng/ul VapBC, 0.1 mg/ml salmon sperm DNA; recombinant protein; protein details: His6 on VapC; label: 5'-32P on SF-EMSA-f strand; probe letters rebuilt from the primers and the genome", "note": "The exact form of at least one protein or probe is not confirmed.", "data": [{"sequence": "GGCCGGCCCAGCGTTCTCCCATGCTGCCCAGCACATAGTAATTATCCTTGTCGGTATAATAGTTCCCGACACTTCCGGCCGATCTGACCTGCGCAATACTCATCATAAACGTATATCCCTTTGACATATCCCGGCATCAATCCCACAATGGATATACACAAGACATATCCACATAAGGAGGCAAATAATGGAAACCACCGTATTTCTCAGCA (double strand) [DNA I]", "values": [{"measurement": "binding result", "result": "binds"}]}]}
